Assay results: patent US20070099199A1
“And” between values parts separate entries of the source, which are not always exact repeats. Equal values may be shown once.

B1: GST-KIAA1719 PDZ domain 3 (protein)
chain: MSPILGYWKIKGLVQPTRLLLEYLEEKYEEHLYERDEGDKWRNKKFELGLEFPNLPYYIDGDVKLTQSMAIIRYIADKHNMLGGCPKERAEISMLEGAVLDIRYGVSRIAYSKDFETLKVDFLSKLPEMLKMFEDRLCHKTYLNGDHVTHPDFMLYDALDVVLYMDPMCLDAFPKLVCFKKRIEAIPQIDKYLKSSKYIAWPLQGWQATFGGGDHPPKSDLIEGRIQIVHTETTEVVLCGDPLSGFGLQLQGGIFATETLSSPPLVCFIEPDSPAERCGLLQVGDRVLSINGIATEDGTMEEANQLLRDAALAHKVVLEVEFDVAESV
B2: GST-Serine Protease PDZ domain 1 (protein)
chain: MSPILGYWKIKGLVQPTRLLLEYLEEKYEEHLYERDEGDKWRNKKFELGLEFPNLPYYIDGDVKLTQSMAIIRYIADKHNMLGGCPKERAEISMLEGAVLDIRYGVSRIAYSKDFETLKVDFLSKLPEMLKMFEDRLCHKTYLNGDHVTHPDFMLYDALDVVLYMDPMCLDAFPKLVCFKKRIEAIPQIDKYLKSSKYIAWPLQGWQATFGGGDHPPKSDLIEGRRGEKKNSSSGISGSQRRYIGVMMLTLSPSILAELQLREPSFPDVQHGVLIHKVILGSPAHRAGLRPGDVILAIGEQMVQNAEDVYEAVRTQSQLAVQIRRGRETLTLYV
B3: GST-CARD14 PDZ domain 1 (protein)
chain: MSPILGYWKIKGLVQPTRLLLEYLEEKYEEHLYERDEGDKWRNKKFELGLEFPNLPYYIDGDVKLTQSMAIIRYIADKHNMLGGCPKERAEISMLEGAVLDIRYGVSRIAYSKDFETLKVDFLSKLPEMLKMFEDRLCHKTYLNGDHVTHPDFMLYDALDVVLYMDPMCLDAFPKLVCFKKRIEAIPQIDKYLKSSKYIAWPLQGWQATFGGGDHPPKSDLIEGRILSQVTMLAFQGDALLEQISVIGGNLTGIFIHRVTPGSAADQMALRPGTQIVMVDYEASEPLFKAVLEDTTLEEAVGLLRRVDGFCCLSVKVNTDGYKRL
B4: GST-KIAA1095 PDZ domain 1 (protein)
chain: MSPILGYWKIKGLVQPTRLLLEYLEEKYEEHLYERDEGDKWRNKKFELGLEFPNLPYYIDGDVKLTQSMAIIRYIADKHNMLGGCPKERAEISMLEGAVLDIRYGVSRIAYSKDFETLKVDFLSKLPEMLKMFEDRLCHKTYLNGDHVTHPDFMLYDALDVVLYMDPMCLDAFPKLVCFKKRIEAIPQIDKYLKSSKYIAWPLQGWQATFGGGDHPPKSDLIEGRQGEETKSLTLVLHRDSGSLGFNIIGGRPSVDNHDGSSSEGIFVSKIVDSGPAAKEGGLQIHDRIIEVNGRDLSRATHDQAVEAFKTAKEPIVVQVLRRTPRTKMFTP
B5: GST-KIAA0973 #288.2 PDZ domain 1 (protein)
chain: MSPILGYWKIKGLVQPTRLLLEYLEEKYEEHLYERDEGDKWRNKKFELGLEFPNLPYYIDGDVKLTQSMAIIRYIADKHNMLGGCPKERAEISMLEGAVLDIRYGVSRIAYSKDFETLKVDFLSKLPEMLKMFEDRLCHKTYLNGDHVTHPDFMLYDALDVVLYMDPMCLDAFPKLVCFKKRIEAIPQIDKYLKSSKYIAWPLQGWQATFGGGDHPPKSDLIEGRGLRSPITIQRSGKKYGFTLRAIRVYMGDTDVYSVHHIVWHVEEGGPAQEAGLCAGDLITHVNGEPVHGMVHPEVVELILKSGNKVAVTTTPFE
B6: GST-DLG1 PDZ domain 1 (protein)
chain: MSPILGYWKIKGLVQPTRLLLEYLEEKYEEHLYERDEGDKWRNKKFELGLEFPNLPYYIDGDVKLTQSMAIIRYIADKHNMLGGCPKERAEISMLEGAVLDIRYGVSRIAYSKDFETLKVDFLSKLPEMLKMFEDRLCHKTYLNGDHVTHPDFMLYDALDVVLYMDPMCLDAFPKLVCFKKRIEAIPQIDKYLKSSKYIAWPLQGWQATFGGGDHPPKSDLIEGRIQVNGTDADYEYE[about 80 residues not printed]
B7: GST-KIAA1634 PDZ domain 1 (protein)
chain: MSPILGYWKIKGLVQPTRLLLEYLEEKYEEHLYERDEGDKWRNKKFELGLEFPNLPYYIDGDVKLTQSMAIIRYIADKHNMLGGCPKERAEISMLEGAVLDIRYGVSRIAYSKDFETLKVDFLSKLPEMLKMFEDRLCHKTYLNGDHVTHPDFMLYDALDVVLYMDPMCLDAFPKLVCFKKRIEAIPQIDKYLKSSKYIAWPLQGWQATFGGGDHPPKSDLIEGRPSQLKGVLVRASLKKSTMGFGFTIIGGDRPDEFLQVKNVLKDGPAAQDGKIAPGDVIVDINGNCVLGHTHADVVQMFQLVPVNQYVNLTLCRGYPLPDDSED
B8: GST-KIAA0807 PDZ domain 1 (protein)
chain: MSPILGYWKIKGLVQPTRLLLEYLEEKYEEHLYERDEGDKWRNKKFELGLEFPNLPYYIDGDVKLTQSMAIIRYIADKHNMLGGCPKERAEISMLEGAVLDIRYGVSRIAYSKDFETLKVDFLSKLPEMLKMFEDRLCHKTYLNGDHVTHPDFMLYDALDVVLYMDPMCLDAFPKLVCFKKRIEAIPQIDKYLKSSKYIAWPLQGWQATFGGGDHPPKSDLIEGRISALGSMRPPIIIHRAGKKYGFTLRAIRVYMGDSDVYTVHHMVWHVEDGGPASEAGLRQGDLITHVNGEPVHGLVHTEVVELILKSGNKVAISTTPLENSS
B9: GST-KIAA0147 PDZ domain 1 (protein)
chain: MSPILGYWKIKGLVQPTRLLLEYLEEKYEEHLYERDEGDKWRNKKFELGLEFPNLPYYIDGDVKLTQSMAIIRYIADKHNMLGGCPKERAEISMLEGAVLDIRYGVSRIAYSKDFETLKVDFLSKLPEMLKMFEDRLCHKTYLNGDHVTHPDFMLYDALDVVLYMDPMCLDAFPKLVCFKKRIEAIPQIDKYLKSSKYIAWPLQGWQATFGGGDHPPKSDLIEGRILTLTILRQTGGLGISIAGGKGSTPYKGDDEGIFISRVSEEGPAARAGVRVGDKLLEVNGVALQGAEHHEAVEALRGAGTAVQMRVWRERMVEPENAEFIVTD
B10: GST-FLJ00011 PDZ domain 1 (protein)
chain: MSPILGYWKIKGLVQPTRLLLEYLEEKYEEHLYERDEGDKWRNKKFELGLEFPNLPYYIDGDVKLTQSMAIIRYIADKHNMLGGCPKERAEISMLEGAVLDIRYGVSRIAYSKDFETLKVDFLSKLPEMLKMFEDRLCHKTYLNGDHVTHPDFMLYDALDVVLYMDPMCLDAFPKLVCFKKRIEAIPQIDKYLKSSKYIAWPLQGWQATFGGGDHPPKSDLIEGRKNPSGELKTVTLSKMKQSLGISISGGIESKVQPMVKIEKIFPGGAAFLSGALQAGFELVAVDGENLEQVTHQRAVDTIRRAYRNKAREPMELVVRVPGPSPRPSPSD
B11: GST-Magi2 PDZ domain 1, Q86UL8 408-511 (protein)
chain: MSPILGYWKIKGLVQPTRLLLEYLEEKYEEHLYERDEGDKWRNKKFELGLEFPNLPYYIDGDVKLTQSMAIIRYIADKHNMLGGCPKERAEISMLEGAVLDIRYGVSRIAYSKDFETLKVDFLSKLPEMLKMFEDRLCHKTYLNGDHVTHPDFMLYDALDVVLYMDPMCLDAFPKLVCFKKRIEAIPQIDKYLKSSKYIAWPLQGWQATFGGGDHPPKSDLIEGRREKPLFTRDASQLKGTFLSTTLKKSNMGFGFTIIGGDEPDEFLQVKSVIPDGPAAQDGKMETGDVIVYINEVCVLGHTHADVVKLFQSVPIGQSVNLVLCRGYP
B12: GST-KIAA0147 PDZ domain 3 (protein)
chain: MSPILGYWKIKGLVQPTRLLLEYLEEKYEEHLYERDEGDKWRNKKFELGLEFPNLPYYIDGDVKLTQSMAIIRYIADKHNMLGGCPKERAEISMLEGAVLDIRYGVSRIAYSKDFETLKVDFLSKLPEMLKMFEDRLCHKTYLNGDHVTHPDFMLYDALDVVLYMDPMCLDAFPKLVCFKKRIEAIPQIDKYLKSSKYIAWPLQGWQATFGGGDHPPKSDLIEGRILEGPYPVEEIRLPRAGGPLGLSIVGGSDHSSHPFGVQEPGVFISKVLPRGLAARSGLRVGDRILAVNGQDVRDATHQEAVSALLRPCLELSLLVRRDPAEFIVTD
B13: GST-NeDLG PDZ domain 2 (protein)
chain: MSPILGYWKIKGLVQPTRLLLEYLEEKYEEHLYERDEGDKWRNKKFELGLEFPNLPYYIDGDVKLTQSMAIIRYIADKHNMLGGCPKERAEISMLEGAVLDIRYGVSRIAYSKDFETLKVDFLSKLPEMLKMFEDRLCHKTYLNGDHVTHPDFMLYDALDVVLYMDPMCLDAFPKLVCFKKRIEAIPQIDKYLKSSKYIAWPLQGWQATFGGGDHPPKSDLIEGRITLLKGPKGLGFSIAGGIGNQHIPGDNSIYITKIIEGGAAQKDGRLQIGDRLLAVNNTNLQDVRHEEAVASLKNTSDMVYLKVAKPGSLE
B14: GST-Outer Membrane PDZ domain 1 (protein)
chain: MSPILGYWKIKGLVQPTRLLLEYLEEKYEEHLYERDEGDKWRNKKFELGLEFPNLPYYIDGDVKLTQSMAIIRYIADKHNMLGGCPKERAEISMLEGAVLDIRYGVSRIAYSKDFETLKVDFLSKLPEMLKMFEDRLCHKTYLNGDHVTHPDFMLYDALDVVLYMDPMCLDAFPKLVCFKKRIEAIPQIDKYLKSSKYIAWPLQGWQATFGGGDHPPKSDLIEGRLLTEEEINLTRGPSGLGFNIVGGTDQQYVSNDSGIYVSRIKENGAAALDGRLQEGDKILSVNGQDLKNLLHQDAVDLFRNAGYAVSLRVQHRLQVQNGIHS
B15: GST-MAGI 1 PDZ domain 2 (protein)
chain: MSPILGYWKIKGLVQPTRLLLEYLEEKYEEHLYERDEGDKWRNKKFELGLEFPNLPYYIDGDVKLTQSMAIIRYIADKHNMLGGCPKERAEISMLEGAVLDIRYGVSRIAYSKDFETLKVDFLSKLPEMLKMFEDRLCHKTYLNGDHVTHPDFMLYDALDVVLYMDPMCLDAFPKLVCFKKRIEAIPQIDKYLKSSKYIAWPLQGWQATFGGGDHPPKSDLIEGRPSELKGKFIHTKLRKSSRGFGFTVVGGDEPDEFLQIKSLVLDGPAALDGKMETGDVIVSVNDTCVLGHTHAQVVKIFQSIPIGASVDLELCRGYPLPFDPDDPN
B16: GST-EZRIN Binding Protein 50 PDZ domain 2, clone #168.2 (protein)
chain: MSPILGYWKIKGLVQPTRLLLEYLEEKYEEHLYERDEGDKWRNKKFELGLEFPNLPYYIDGDVKLTQSMAIIRYIADKHNMLGGCPKERAEISMLEGAVLDIRYGVSRIAYSKDFETLKVDFLSKLPEMLKMFEDRLCHKTYLNGDHVTHPDFMLYDALDVVLYMDPMCLDAFPKLVCFKKRIEAIPQIDKYLKSSKYIAWPLQGWQATFGGGDHPPKSDLIEGRIRLCTMKKGPSGYGFNLHSDKSKPGQFIRSVDPDSPAEASGLRAQDRIVEVNGVCMEGKQHGDVVSAIRAGGDETKLLVVDRETDEFFMNSS

Columns and labels:
[1] = target: HPV16 E6 C-terminal PDZ ligand (PL) peptide, biotinylated (human papillomavirus type 16); assay: G assay ELISA; immobilised GST-PDZ, biotin-peptide 10 uM
[2] = target: HPV E6 #16 PDZ ligand peptide (C-terminal peptide of the E6 protein of HPV 16) (HPV 16); assay: G assay ELISA, immobilised GST-PDZ, biotin peptide 10 uM

Binder	Ave OD [1] [A450 nm]	OD S/N (ratio vs GST only) [1]	Ave OD [2]	OD S/N (ratio to GST-only well) [2]
B1	0.346	1.65	–	–
B2	0.343	1.55	–	–
B3	0.342	1.52	–	–
B4	–	–	2.7 A450 nm and 1.71 A450 nm	13.1 and 7.96
B5	–	–	–	16.4 and 10.1
B6	–	–	1.09 A450 nm	4.18
B7	–	–	–	19 and 19.4
B8	–	–	–	23.2 and 11.4
B9	–	–	3.76 A450 nm and 2.15 A450 nm	21.3 and 8.71
B10	–	–	–	3.97
B11	–	–	–	11.6 and 7.23
B12	–	–	2.08 A450 nm and 1.07 A450 nm	11.8 and 4.35
B13	–	–	1.12 A450 nm	3.99
B14	–	–	–	11.4 and 6.25
B15	–	–	4.11 A450 nm	19.5
B16	0.345	1.99	–	–
